One compound from patent US6841566B2, “Viral polymerase inhibitors” (Boehringer Ingelheim, Ltd., priority 2001, dated 2005) can be followed below.

The chains behind the UniProt entries cited, without tags or fusion partners. A line that says so, or that is headed by a name, gives the form on record, which may keep a tag or linker. Residues count along the entry.
UniProt P26663, 2420-3010 with tags or gaps with the stated changes: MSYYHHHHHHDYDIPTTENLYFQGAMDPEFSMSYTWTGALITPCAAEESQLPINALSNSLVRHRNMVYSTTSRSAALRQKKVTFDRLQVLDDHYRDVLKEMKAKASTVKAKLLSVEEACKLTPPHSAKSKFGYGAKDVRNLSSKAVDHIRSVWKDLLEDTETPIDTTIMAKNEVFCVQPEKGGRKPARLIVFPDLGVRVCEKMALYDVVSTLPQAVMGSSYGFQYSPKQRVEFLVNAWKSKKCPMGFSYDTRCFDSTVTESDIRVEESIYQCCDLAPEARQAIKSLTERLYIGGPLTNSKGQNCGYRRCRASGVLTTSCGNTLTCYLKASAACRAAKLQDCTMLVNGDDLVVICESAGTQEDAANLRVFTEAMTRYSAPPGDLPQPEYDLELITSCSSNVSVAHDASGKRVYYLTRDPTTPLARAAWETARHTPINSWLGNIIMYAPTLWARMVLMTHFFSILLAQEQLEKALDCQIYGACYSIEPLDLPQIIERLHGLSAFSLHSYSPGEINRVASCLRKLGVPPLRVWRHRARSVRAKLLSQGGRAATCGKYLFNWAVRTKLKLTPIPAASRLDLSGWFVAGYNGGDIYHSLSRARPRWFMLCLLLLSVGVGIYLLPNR

Test [1] relates to Huh7 cells that stably maintain a subgenomic HCV replicon (S22.3 cell-line). The test is described as follows: Cell based HCV RNA replication assay (S22.3 replicon cells, real-time RT-PCR). To be noted: 72 hours. Here is the method:
Huh7 cells that stably maintain a subgenomic HCV replicon were established as previously described (Lohman et al., 1999. Science 285: 110-113) and designated as the S22.3 cell-line. S22.3 cells were maintained in Dulbecco's Modified […] Medium (DMEM) supplemented with 10% FBS and 0.5 mg/mL neomycin (Standard Medium). During the assay, DMEM medium supplemented with 10% FBS, containing 0.5% DMSO and lacking neomycin was used (Assay Medium). 16 hours prior to compound addition, S22.3 cells are trypsinized and diluted to 100 000 cells/ml in Standard Medium. 100μL (10 000 cells) are distributed into each well of a 96-well plate. The plate was then incubated at 37° C. with 5% CO2 until the next day.
10 μL of test compound (in 100% DMSO) was added to 2 ml of Assay Medium for a final DMSO concentration of 0.5% and the solution was sonicated for 15 min and filtered through a […] Millipore Filter Unit. 900 μl was transferred into row A of a Polypropylene Deep-Well Titer Plate. Rows B to H, contain 400 μL aliquots of Assay Medium (containing 0.5% DMSO), and were used to prepare serial dilutions (1/2) by transferring 400 μl from row to row (no compound was included in row H).
Cell culture medium was aspirated from the 96-well plate containing the S22.3 cells. […]
RNA was quantified on the STORM® system (Molecular Dynamics®) using the RiboGreen® RNA Quantification Kit (Molecular Probes®). […]

In test [2] the target is hepatitis C virus RNA dependant polymerase (NS5B) (Hepatitis C virus genotype 1b, UniProt P26663). To be noted: HCV NS5B polymerase assay of Example 22.

Some results are limits rather than exact numbers.

In turn, `C=CC1CC1(NC(=O)c1ccc2c(c1)nc(-c1ccoc1)n2C1CCCCC1)C(=O)Nc1ccc(/C=C/C(=O)O)cc1` (single isomer, unassigned) came in with an EC50 in test [1] of under 5000 nM. In test [2], this compound gave an IC50 of under 500 nM.
